PubChem BioAssay AID1259414 – Drosophila RNAi Screening Center – 2018

Screen: 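Genome-wide screen for host control of endosymbiont load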 (primary screen)
Cells: Drosophila JW18 cells infected with Wolbachia
Reagents: long dsRNA against Drosophila genes, 0.25 µg dsRNA per well of a 384-well plate
Timing: 5 days
Conditions: cells persistently infected with Wolbachia before knock-down; no added drug
Detection: 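Automated imaging of bacterial rRNA staining divided by host cell count, reported as plate-normalised robust z-score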
Scale: Wolbachia per cell robust z: higher = more Wolbachia per host cell than the plate typical
Hit rule: 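Hit when robust z is 1.5 or more, or -1.5 or less, in at least two of three replicates; excludes dsRNAs with several or no targets, genes not expressed in JW18 and well A1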
In all, the deposit lists about 24,000 reagents; shown is an unselected part of those that have a named target and a result. Over the whole deposit, about 1,210 (5%) were called active. 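Inactive calls also include excluded dsRNAs with several or no targets, genes unexpressed in JW18, and well A1, regardless of score.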 Reagents against one gene are numbered here. A plus sign joins genes that one reagent is predicted to hit.

no.	predicted target	dsRNA no.	Wolbachia per cell robust z, rep 1	Wolbachia per cell robust z, rep 2	Wolbachia per cell robust z, rep 3	call
1	lncRNA:CR43199	1	0.452	0.989	0.906	inactive
2	Mct1	1	0.0778	-0.149	0.348	inactive
3	Mct1	2	-1.98	-0.0505	-1.24	inactive
4	Bap55	1	0.844	0.951	0.698	inactive
5	Ir51b	1	0.405	2.74	1.05	inactive
6	CG11768 + Nasp + CG34135	1	0.055	0.0291	-0.366	inactive
7	CG1418	1	0.546	0.625	-3.4	inactive
8	CG1418	2	-1.1	0.692	-0.325	inactive
9	Tis11	1	1.03	-0.927	0.605	inactive
10	ssx	1	3.74	0.129	1.8	active
11	ssx	2	-0.522	-0.198	-0.586	inactive
12	ssx	3	-1.03	-0.528	-0.683	inactive
13	CG9795	1	-2.09	-0.532	-0.719	inactive
14	CG9795	2	-0.459	-0.0989	-1.03	inactive
15	CG44085	1	0.9	-0.293	0.836	inactive
16	CG44085	2	0.531	-0.805	-2.71	inactive
17	CG34332	1	-0.314	0.263	0.582	inactive
18	CG11030	1	1.38	0.921	-0.0889	inactive
19	CG11030	2	0.367	1.23	0.998	inactive
20	s-cup	1	0.253	-1.27	0.255	inactive
21	s-cup	2	-0.386	0.199	0.296	inactive
22	s-cup	3	0.73	1.27	2.18	inactive
23	CG14478	1	-2.96	0.0465	0.483	inactive
24	CG15012	1	-2.56	0.37	-2.12	active
25	lncRNA:CR42696	1	-0.131	0.00885	0.223	inactive
26	Or59b	1	-0.323	0.266	0.0145	inactive
27	CG14285	1	-5.27	0.406	-0.537	inactive
28	Lrrk	1	0.292	0.264	0.384	inactive
29	Lrrk	2	1.17	0.788	1.08	inactive
30	Lrrk	3	0.133	0.145	-0.953	inactive
31	Alg3	1	-0.572	-1.11	-5.19	inactive
32	Eh	1	0.261	1.11	0.76	inactive

Looked up above:
CG1418 #2, Wolbachia per cell robust z, rep 3: -0.325
Value of Alg3 under “call”: inactive
CG15012, Wolbachia per cell robust z, rep 1 → -2.56
CG9795 #1, call: inactive
s-cup #3, Wolbachia per cell robust z, rep 3 = 2.18
Value for Bap55 in “Wolbachia per cell robust z, rep 3”: 0.698

Further results follow.
no.	predicted target	dsRNA no.	Wolbachia per cell robust z, rep 1	Wolbachia per cell robust z, rep 2	Wolbachia per cell robust z, rep 3	call
33	CG31869	1	-0.168	-0.5	0.762	inactive
34	CG31869	2	0.872	-0.0603	-6.28	inactive
35	Or43b	1	-2.96	-6.77	-0.0386	active
36	Or43b	2	-0.423	0.983	-0.399	inactive
37	CG12129	1	-1.82	-0.968	-0.854	inactive
38	me31B	1	2.19	1.5	1.48	active
39	CG9512	1	-0.00813	0.452	-0.246	inactive
40	CG4891	1	-0.1	-1.1	0.209	inactive
41	CG4891	2	0.247	-0.326	0.282	inactive
42	CG17738	1	-0.769	-1.27	0.292	inactive
43	CG17738	2	1.18	-0.0856	0.195	inactive
44	CG13223	1	0.19	0.361	-1.44	inactive
45	CG15908 + CG9410	1	-2.34	-0.961	0.899	inactive
46	CG15908 + CG9410	2	-0.513	-0.436	-0.0417	inactive
47	CG32755	1	0.641	-0.531	0.989	inactive
48	CG32755	2	0.828	0.546	-8.05	inactive
49	eIF3m	1	1.35	2.65	3.42	active
50	eIF3m	2	1.32	1.38	2.61	inactive
51	CG18788	1	0.817	0.493	0.231	inactive
52	CR1075	1	0.729	0.0965	-0.914	inactive
53	CG15394	1	-0.0383	-0.89	1.43	inactive
54	CG17078	1	-2.3	0.289	0.674	inactive
55	CG17078	2	-0.308	-0.995	-0.108	inactive
56	CG10911	1	0.742	0.558	-1.63	inactive
57	CG42540	1	0.429	1.15	0.947	inactive
58	CG42540	2	-0.0884	-0.961	-7.15	inactive
59	CG42540	3	0.749	-0.344	-0.204	inactive
60	CG42540	4	-0.179	-0.372	0.359	inactive
61	CG31064	1	0.293	-2.55	-2.99	active
62	CG31064	2	1.35	1.16	0.883	inactive
63	CG31064	3	1.13	0.644	-0.898	inactive
64	CG31064	4	-0.492	0.712	-1.63	inactive
65	snoRNA:U27:54Ea + snoRNA:U29:54Ed + snoRNA:U27:54Eb + 8 more	1	0.59	-5.67	0.569	inactive
66	Drep3	1	0.861	-1.18	-0.0816	inactive
67	Drep3	2	-0.475	0.168	-0.0644	inactive
68	CG12480	1	0.509	-4.94	0.931	inactive
69	CG12480	2	-2.03	-1.15	-1.7	inactive
